Anti-infective test results gathered from many reports (values: NIAID ChemDB through PubChem).

Common to all: whole-cell or culture tests; agent: HIV-1

ECn: concentration that inhibits the pathogen or its effect by n%. Two numbers with a dash give a range or band. An empty or dashed field is not shown. Conditions beyond the fields shown may differ between rows.

SMILES	read by	mutations	measure	cell line	strain or isolate	value
COc1cccc2c(C(=O)C(=O)N3CCN(C(=O)c4ccccn4)C[C@H]3C)c[nH]c12	luciferase	-	EC50	HeLa + HELA CD4+/CCR5	-	<10 µM
Cc1cc2[nH]cnc2cc1NC(=O)COc1ccc(Cl)cc1C(=O)c1cc(F)cc(C(F)(F)F)c1	β-galactosidase	RT-V108I	EC50	HeLa + HELA CD4+	HXB2	<0.01 µM
CC(=O)Oc1ccc(C(=O)N2CCN(C(=O)C(=O)c3c[nH]c4cccc(F)c34)CC2)cc1	luciferase	-	EC50	HeLa + HELA CD4+/CCR5	-	<10 µM
N#Cc1cc2[nH]c3ccccc3c2n(-c2ccc([N+](=O)[O-])cc2)c1=O	cytopathic effect / MTT	RT-K103N Y181C	EC50	MT-4	H	1.59 µM
Nc1ccc2cc(S(=O)(=O)O)cc(O)c2c1N=Nc1ccc(NC(=O)Nc2ccc(N=Nc3c(N)ccc4cc(S(=O)(=O)O)cc(O)c34)c(S(=O)(=O)O)c2)cc1S(=O)(=O)O	cytopathic effect / XTT	-	EC50	CEM + CEM-SS	RF	10 µM
CC(C)C1=C2[C@H]3CC[C@@H]4[C@@]5(C)CC[C@H](OC(=O)[C@H]6C[C@@H](C(=O)O)C6(C)C)C(C)(C)[C@@H]5CC[C@@]4(C)[C@]3(C)CC[C@@]2(CC(=O)NCCN2CCCCC2)CC1=O	p24 / ELISA	-	EC50	MT-2	92HT599	<1 µM
COc1ccc(N(C)C(=O)[C@H](Cc2ccccc2)NC(=O)c2cc(C(=O)N[C@@H](Cc3ccccc3)C(=O)N(C)c3ccc(OC)cc3)on2)cc1	luciferase	-	EC50	MT-2	NL4-3	0.71 µM
CC(C)C1=C2[C@H]3CC[C@@H]4[C@@]5(C)CC[C@H](OC(=O)[C@H]6C[C@@H](C(=O)O)C6(C)C)C(C)(C)[C@@H]5CC[C@@]4(C)[C@]3(C)CC[C@@]2(CCNCC(C)(C)NC(=O)c2ccc(Cl)cc2O[C@@H]2CCOC2)CC1=O	p24 / ELISA	-	EC50	MT-2	92HT599	<1 µM
CN1c2ccccc2C2C1C=CC(=O)N2c1ccc([N+](=O)[O-])cc1	cytopathic effect / MTT	-	EC50	MT-4	LAI	<1 µM
CN(C(=O)[C@H](Cc1cc(F)cc(F)c1)NC(=O)CN1c2ccccc2N(CC(=O)N[C@@H](Cc2cc(F)cc(F)c2)C(=O)N(C)c2ccc3snnc3c2)S1(=O)=O)c1ccc2snnc2c1	luciferase	-	EC50	MT-2	NL4-3	0.02 µM
CCOC(=O)c1ccc(N2C(=O)C=CC3Nc4ccccc4C32)cc1	cytopathic effect / MTT	-	EC50	MT-4	LAI	>32 µM
O=C1Nc2ccc(F)c(F)c2[C@@](C#CC2CC2)(C(F)(F)F)N1	-	RT-K101E	EC90	-	-	<0.012 µM
CC(C)C1=C2[C@H]3CC[C@@H]4[C@@]5(C)CC[C@H](OC(=O)[C@H]6C[C@@H](C(=O)O)C6(C)C)C(C)(C)[C@@H]5CC[C@@]4(C)[C@]3(C)CC[C@@]2(CC(=O)NCc2ccccn2)CC1=O	p24 / ELISA	-	EC50	MT-2	92HT599	<1 µM
CN(C(=O)[C@H](Cc1cc(F)cc(F)c1)NC(=O)NS(=O)(=O)N[C@@H](Cc1cc(F)cc(F)c1)C(=O)N(C)c1ccc2sc(=O)[nH]c2c1)c1ccc2sc(=O)[nH]c2c1	luciferase	-	EC50	MT-2	NL4-3	0.45 µM
CC(C)C1=C2[C@H]3CC[C@@H]4[C@@]5(C)CC[C@H](OC(=O)[C@H]6C[C@@H](C(=O)O)C6(C)C)C(C)(C)[C@@H]5CC[C@@]4(C)[C@]3(C)CC[C@@]2(CCNC(=O)c2nc3ccccc3[nH]2)CC1=O	p24 / ELISA	-	EC50	MT-2	92HT599	<1 µM
Cc1cc(S(N)(=O)=O)ccc1NC(=O)COc1ccc(Cl)cc1C(=O)c1cc(Cl)cc(C#N)c1	β-galactosidase	RT-L100I	EC50	HeLa + HELA CD4+	HXB2	<0.01 µM
N#CC1=CC2Nc3ccccc3C2N(c2ccc(Br)cc2)C1=O	cytopathic effect / MTT	-	EC50	MT-4	LAI	1–32 µM
COc1cccc2c(C(=O)C(=O)N3CCN(C(=O)c4ccccc4)CC3)c[nH]c12	luciferase	-	EC50	HeLa + HELA CD4+/CCR5	-	<10 µM
CN1c2ccccc2C2C1C=C(C(N)=O)C(=O)N2c1ccc([N+](=O)[O-])cc1	cytopathic effect / MTT	-	EC50	MT-4	LAI	1–32 µM
COc1ccc(N(C)C(=O)[C@H](Cc2ccccc2)NC(=O)CCCC(=O)N[C@@H](Cc2ccccc2)C(=O)N(C)c2ccc(OC)cc2)cc1	luciferase	-	EC50	MT-2	NL4-3	1.31 µM
Cc1cc(C#N)cc(C(=O)c2cc(Cl)ccc2OCC(=O)Nc2ccc(S(N)(=O)=O)cc2C)c1	cytopathic effect / propidium iodide	RT-Y181C	EC50	MT-4	Nevirapine-resistant (RT Y181C)	<0.01 µM
COc1ccnc2[nH]cc(C(=O)C(=O)N3C4CCCC3CN(C(=O)c3ccccc3)C4)c12	luciferase	-	EC50	TZM-bl	AC10	1.1 µM
COc1ccc(Cl)c2[nH]cc(C(=O)C(=O)N3CCN(C(=O)c4cccc(N)c4)C[C@H]3C)c12	luciferase	-	EC50	HeLa + HELA CD4+/CCR5	-	<10 µM
COc1ccc(N(C)C(=O)[C@H](Cc2ccccc2)NC(=O)Cc2cn(CC(=O)N[C@@H](Cc3ccccc3)C(=O)N(C)c3ccc(OC)cc3)c3ccccc23)cc1	luciferase	-	EC50	MT-2	NL4-3	0.61 µM
COc1cccc2[nH]cc(C(=O)C(=O)N3CCN(C(=O)c4ccccn4)C[C@H]3C)c12	luciferase	-	EC50	HeLa + HELA CD4+/CCR5	-	<10 µM
CC(C)C1=C2[C@H]3CC[C@@H]4[C@@]5(C)CC[C@H](OC(=O)[C@H]6C[C@@H](C(=O)O)C6(C)C)C(C)(C)[C@@H]5CC[C@@]4(C)[C@]3(C)CC[C@@]2(CCNCc2ccc(Cl)cc2OCCN2CCOCC2)CC1=O	p24 / ELISA	-	EC50	MT-2	92HT599	<1 µM
CCCc1cc(=O)oc2c3c(c4c(c12)OC(C)(C)CC4)O[C@@H](C)[C@H](C)[C@@H]3O	XTT	RT-A98G	EC50	CEM + CEM-SS	NL4-3	0.2 µM
COc1cc(-c2ccc(N=Nc3ccc4c(S(=O)(=O)O)cc(S(=O)(=O)O)c(N)c4c3O)c(OC)c2)ccc1N=Nc1ccc2c(S(=O)(=O)O)cc(S(=O)(=O)O)c(N)c2c1O	RT activity	-	EC50	CEM + CEM-SS	205	0.6 µM
N#CC1=CC2C(c3ccccc3N2CCCCN2CCCCC2)N(c2ccc([N+](=O)[O-])cc2)C1=O	cytopathic effect / MTT	-	EC50	MT-4	LAI	<1 µM
Cc1cc(S(N)(=O)=O)ccc1NC(=O)COc1ccc(Cl)cc1C(=O)c1cccc(C#N)n1	β-galactosidase	RT-P225H	EC50	HeLa + HELA CD4+	HXB2	<0.01 µM
COc1ccc(N(C)C(=O)[C@H](Cc2ccccc2)NC(=O)c2cccc(C(=O)N[C@@H](Cc3ccccc3)C(=O)N(C)c3ccc(OC)cc3)n2)cc1	luciferase	-	EC50	MT-2	NL4-3	0.95 µM
Cc1cc(S(N)(=O)=O)ccc1NC(=O)COc1ccc(Cl)cc1C(=O)c1cccc(C#N)c1	β-galactosidase	RT-V108I	EC50	HeLa + HELA CD4+	HXB2	<0.01 µM
CCC(=O)c1ccc(F)c([C@@H]2C[C@@H]2NC(=O)Nc2ccc(C#N)cn2)c1O	β-galactosidase / luminescence	NNRTI-resistant (RT K101E/K103N)	EC50	TZM-bl	LAI	0.0381 µM
CN1c2ccccc2C2C1C=CC(=O)N2c1ccc(/C(N)=N/O)cc1	cytopathic effect / MTT	-	EC50	MT-4	LAI	1–32 µM
CC(C)C1=C2[C@H]3CC[C@@H]4[C@@]5(C)CC[C@H](OC(=O)[C@H]6C[C@@H](C(=O)O)C6(C)C)C(C)(C)[C@@H]5CC[C@@]4(C)[C@]3(C)CC[C@@]2([C@@H](O)CNCc2ccc3nc(-c4ccccc4)[nH]c3c2)CC1=O	p24 / ELISA	-	EC50	MT-2	92HT599	<1 µM
O=C1Nc2ccc(Cl)cc2[C@@](C#CC2CC2)(C(F)(F)F)N1	-	RT-K103N P225H	EC90	-	-	~0.085 µM
COc1ccc(N(C)C(=O)[C@H](Cc2ccccc2)NC(=O)C2CCCCC2C(=O)N[C@@H](Cc2ccccc2)C(=O)N(C)c2ccc(OC)cc2)cc1	luciferase	-	EC50	MT-2	NL4-3	0.34 µM
CCc1cc(C#N)cc(C(=O)c2cc(Cl)ccc2OCC(=O)Nc2ccc(S(N)(=O)=O)cc2C)c1	β-galactosidase	RT-Y181C	EC50	HeLa + HELA CD4+	HXB2	<0.01 µM
COc1ccnc2[nH]cc(C(=O)C(=O)N3C4CC3CN(C(=O)c3ccccc3)C4)c12	luciferase	-	EC90	TZM-bl	QH0692	>>250 µM
O=C(COc1ccc(Cl)cc1C(=O)c1ccco1)Nc1ccc2cn[nH]c2c1	cytopathic effect / propidium iodide	RT-Y181C	EC50	MT-4	Nevirapine-resistant (RT Y181C)	0.011–0.1 µM
Nc1cccc(C(=O)N2CCN(C(=O)C(=O)c3c[nH]c4c(F)ccc(F)c34)CC2)c1	luciferase	-	EC50	HeLa + HELA CD4+/CCR5	-	<10 µM
Cc1cc(C#N)cc(C(=O)c2cc(Cl)ccc2OCC(=O)Nc2cnc(S(N)(=O)=O)cc2C)c1	β-galactosidase	RT-K103N V108I	EC50	HeLa + HELA CD4+	HXB2	<0.01 µM
O=C(C(=O)N1CCN(C(=O)c2ccc(O)cc2)CC1)c1c[nH]c2cccc(F)c12	luciferase	-	EC50	HeLa + HELA CD4+/CCR5	-	<10 µM
Cc1cc(C#N)cc(C(=O)c2cc(Cl)ccc2OCC(=O)Nc2ccc(OCCCN3CC=CC3)cc2C)c1	β-galactosidase	RT-V108I	EC50	HeLa + HELA CD4+	HXB2	<0.01 µM
C=CCN(C(=O)[C@H](Cc1cc(F)cc(F)c1)NC(=O)c1ccccc1S(=O)(=O)N[C@@H](Cc1cc(F)cc(F)c1)C(=O)N(CC=C)c1ccc(OC)cc1)c1ccc(OC)cc1	luciferase	-	EC50	MT-2	NL4-3	10.14 µM

The first 5 rows once more:

SMILES,read by,mutations,measure,cell line,strain or isolate,value
COc1cccc2c(C(=O)C(=O)N3CCN(C(=O)c4ccccn4)C[C@H]3C)c[nH]c12,luciferase,-,EC50,HeLa + HELA CD4+/CCR5,-,<10 µM
Cc1cc2[nH]cnc2cc1NC(=O)COc1ccc(Cl)cc1C(=O)c1cc(F)cc(C(F)(F)F)c1,β-galactosidase,RT-V108I,EC50,HeLa + HELA CD4+,HXB2,<0.01 µM
CC(=O)Oc1ccc(C(=O)N2CCN(C(=O)C(=O)c3c[nH]c4cccc(F)c34)CC2)cc1,luciferase,-,EC50,HeLa + HELA CD4+/CCR5,-,<10 µM
N#Cc1cc2[nH]c3ccccc3c2n(-c2ccc([N+](=O)[O-])cc2)c1=O,cytopathic effect / MTT,RT-K103N Y181C,EC50,MT-4,H,1.59 µM
Nc1ccc2cc(S(=O)(=O)O)cc(O)c2c1N=Nc1ccc(NC(=O)Nc2ccc(N=Nc3c(N)ccc4cc(S(=O)(=O)O)cc(O)c34)c(S(=O)(=O)O)c2)cc1S(=O)(=O)O,cytopathic effect / XTT,-,EC50,CEM + CEM-SS,RF,10 µM